According to article PMC3898920 (PLoS ONE, 2014):

Assay: Steady-state plasma pharmacokinetics of rifabutin and 25-O-desacetylrifabutin, alone and with lopinavir/ritonavir
Conditions: for Cave (AUCτ/τ) / Cmax / C0 / AUCτ: median (range); for C0: pre-dose
[1] = rifabutin 150 mg OD plus LPV/r vs rifabutin 300 mg OD alone
[2] = rifabutin 150 mg OD with lopinavir/ritonavir
[3] = rifabutin 150 mg TPW plus LPV/r vs rifabutin 300 mg OD alone
[4] = rifabutin 150 mg TPW with lopinavir/ritonavir

25-O-desacetylrifabutin [25-O desacetyl rifabutin]
AUCτ geometric mean ratio (90% CI) (rifabutin 150 mg OD plus LPV/r (AUC24h) vs rifabutin 300 mg OD alone): 5.13 (3.94; 6.69)
C0 geometric mean ratio (90% CI) [1]: 11.49 (8.21;16.09)
Cave geometric mean ratio (90% CI) [1]: 5.13 (3.94; 6.69)
Cmax geometric mean ratio (90% CI) [1]: 2.58 (2.04;3.25)
Cave (AUCτ/τ) [2]: 79 (18–159) ng/mL
Cmax [2]: 216 (94 – 535) ng/mL
C0 [2]: 137 (48 – 334) ng/mL
AUCτ (rifabutin 150 mg OD with lopinavir/ritonavir, τ 24 h): 4127 (1769–8616) ng.h/mL
AUCτ geometric mean ratio (90% CI) (rifabutin 150 mg TPW plus LPV/r (AUC48h) vs rifabutin 300 mg OD alone): 4.74 (3.59; 6.25)
Cave geometric mean ratio (90% CI) [3]: 2.36 (1.79;3.12)
Cmax geometric mean ratio (90% CI) [3]: 1.57 (1.21;2.03)
Cmax [4]: 142 (31 – 308) ng/mL
C0 [4]: 54 (14 – 118) ng/mL
AUCτ (rifabutin 150 mg TPW with lopinavir/ritonavir, τ 48 h): 3807 (872–7628) ng.h/mL
Cave (AUCτ/τ) (rifabutin 300 mg OD alone): 29 (10–427) ng/mL
Cmax (rifabutin 300 mg OD alone, plasma, steady state): 80 (25 - 595) ng/mL
C0 (rifabutin 300 mg OD alone): 10 (0 – 595) ng/mL
AUCτ (rifabutin 300 mg OD alone, τ 24 h): 697 (245–10250) ng.h/mL
